{"source": "paper PMC9603713", "tested_on": "His6-CpxR phosphorylated (CpxR-P)", "assay": "EMSA", "settings": "acetyl phosphate-phosphorylated, 20 mM Tris-HCl pH 7.5, 50 mM KCl, 1 mM DTT, 5% glycerol, 20 min at room temperature, protein details: His6 (pQE80), label: none (ethidium bromide stain), probe letters rebuilt from the primers and the genome", "note": "The exact form of at least one protein or probe is not confirmed."}
{"sequence": "CATGACGGCAGCGGTAACTATGCGCATCATTTGCTCCCAAAATCTTTCTGTCGCGATTCAACGATAGAGAGTTTACGATTCAGGCTGCAAACATGCGTCAGGGGGTGTAAAACAACGTAAAGTCATGGATTAGCGACGTCTGATGACGTAATTTCTGCCTCGGAGGTATTTAAACAATGAATAAAATCCTGTTAGTTGATGATGACCGAGAGCTGACTTCCCTATTAAAGGAGCTGCTCGAGATGGAAGGCTTCAACGTGATTGTTGCCCACGATGGGGAACAGGCGCTTGATCTTCTGGACGACAGCATTGATTTACTTTTGCTTGACGTAATGATGCCGAAGAAAAATGGTATCGACACATTAAAAGCACTTCGCCAGACACACCAGACGCCTGTCATTATGTTGACGGCGCGCGGCAGTGAACTTGATCGCGTTCTCGGCCTTGAGCTGGGCGCAGATGACTATCTCCCGAAACCGTTTAATGATCGTGAGCTGGTGGCACGTATTCGCGCGATCCTGCGCCGTTCGCACTGGAGCGAGCAACAGCAAAAC (double strand) [cpxP regulatory region]", "values": [{"measurement": "binding result", "setting": "positive control, recombinant …", "result": "binds"}]}
{"sequence": "TTAATAAAAATAAAAAAGTTAGCCTGATTACTAAAGATGTTTGCAGCGTATTCTTGAGATTGAGCAAATTCATAATGCTTCCCTCCAGTTGCCTGTTGCAAAATCTTTGGCACTTGATCACTATCGCAGTACATATAGTTTCATCAGAAGATTAATCGATGGTGTTATCATTAGGAAGATAAATTTCTTCATATATAACCCAGTCGATGACTACAATTACTTTTTAATAAGATGGCGATGTAAAAACATCGTAACAGTTTATTTAATAAATAATTTTTCAAATTGTAAGTTTTTA (double strand) [ssrAB -55/+240]", "values": [{"measurement": "binding result", "setting": "2.0 uM, recombinant protein", "result": "binds"}]}
{"sequence": "TTCGGCCCTGATATCCTGAATTAATGGAATGCCTTTTAAAACTGCCAGCATGAATCCCTCCTCAGACATAAATGGGAGTTTCTATCAAATTCGCTCACAACCACATCCGTAAAAAGCCTGATTCACATTTATTTCGACTATACTCTTCTTGTACAATATCAGGATGCTGTCTACATATACCTTGTCACAGGCGATTCTATCATTCGGATTTTCCGATAAATTCACAATTACATTTTCAGCATTGACATAAAAACTTACAATTTGAAAAATTATTTATTAAATAAACTGTTACGATGTTTTTACATCGCCATCTTATTAAAAAGTAATTGTAGTCATCGACTGGGTTATATATGAAGAAATTTATCTTCCTAATGATAACACCATCGATTAATCTTCTGATGAAACTATATGTACTGCGATAGTGATCAAGTGCCAAAGATTTTGCAACAGGCAACTGGAGGGAAGCATTATGAATTTGCTCAATCTCAAGAATACGCTGCAAACATCTTTAGTAATCAGGCTAACTTTTTTATTTTTATTAACAACAATAATTATTTGGCTGCTATCTGTGCTTACCGCAGCTTATATATCAATGGTTCAGAAACGGCAGCATATAATAGAGGATTTATCCGTTCTATCCGAGATGAATATTGTACTAAGCAATCAACGGTTTGAAGAAGCTGAACGTGACGCTAAAAATTTAATGTATCAATGCTCATTAGCGACTGAGATTCATCATAACGATATTTTCCCTGAGGTGAGCCGGCATCTATCTGTCGG (double strand) [ssrAB -302/+478]", "values": [{"measurement": "binding result", "setting": "shift at 1.0 and 2.0 uM, recombinant protein", "result": "binds"}]}
